# Results of single-concentration screens

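Whole-cell growth test on Mycobacterium tuberculosis, read after 4 days in a medium based on cholesterol and the lipid DPPC; the read-out is not stated. Concentration: 500 µM. The record gives no direction; compounds that gave an IC50 in retests scored well above the rest, so higher reads as more growth inhibition. Of about 18,000 compounds tested this way, about 900 (5%) reached 50% or more in at least one test.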

Results are given as percent effect.
The controls that fix the scale are not given in the record; negative values are as filed.
This is part of a subset picked to be rich in strong results.

compound	Percent Effect
O=C(Cc1cccc(O)c1)N1CCc2cnccc21	15.08
O=C(NCCn1ccnn1)c1c(O)cccc1F	3.025
N#CCCN(CCC#N)Cc1cc[nH]n1	-14.01
COCCN1CCN(CCc2ccncc2)CC1	-4.155
CN(C)S(=O)(=O)Nc1cccc(OCCF)c1	29.65
CC(N[C@@H]1CCCC[C@H]1O)c1nccn1C (some centres not stated)	-6.551
c1ccc(CN2CCCN(c3ccccn3)CC2)nc1	63.81
COCCNCCNC(=O)c1csc2ccccc12	16.91
NCc1ccn(-c2ccc(F)cc2)n1	28.37
Nc1nnc(SCc2coc(-c3ccccc3)n2)[nH]1	49.37
Fc1cccnc1NCc1cc[nH]n1	4.762
CCn1cc(C(=O)NC(C)c2nc(C3CC3)no2)cn1 (configuration not stated)	17.74
O=C(NCC(O)c1ccc(Cl)cc1)Nc1ccccn1 (configuration not stated)	78.69
CO[C@H]1CN(Cc2nccn2C(C)C)CC[C@H]1N	2.984
COc1cccc(OC)c1OCC(O)COC(C)C (configuration not stated)	10.94
COC(C)(C)CNc1ccc(OC(F)F)cn1	19.07
CC1CN(c2cccc3cnccc23)CCN1 (configuration not stated)	28.85
N#Cc1ccc(S(=O)(=O)NCCCN)cc1C(F)(F)F	39.87
CCOCCN1CCN(Cc2nnc(OCC)s2)CC1	70.56
COc1cccc(N2CCC(N)C2)c1 (configuration not stated)	66.9
COCCC(=O)NCC(OC)c1cccc(Cl)c1 (configuration not stated)	3.871
Cn1cncc1CN	3.199
CCCN(C(=O)c1ccc(Br)cn1)C1CCNC1 (configuration not stated)	-17.58
CNC(=O)c1ccc(CNC(=O)C2CCOC2)o1 (configuration not stated)	-8.158
NCCCOc1ncc(C(F)(F)F)cc1Cl	60.63
C=Cc1nnnn1-c1ccccc1	14.7
CCN1CCN(CCS(=O)(=O)c2ccccc2)CC1	23.39
OCC1CCCN(Cc2ccccc2)C1 (configuration not stated)	4.405
OCc1cc2ccccc2nc1N1CCSCC1	80.02
CNS(=O)(=O)c1ccc(F)c(C)c1	0.4474
Cc1cc2c(cc1S(=O)(=O)N1CCCC(N)C1)OCO2 (configuration not stated)	2.2
Cc1cc2cc(C(=O)N3CC[C@@H](N)[C@H](O)C3)ccc2o1	2.06
CC(=O)c1cc(CN2CCN(C(=O)N(C)C)CC2)cs1	8.233
CN(Cc1ccc(Br)s1)CC(O)COCCO (configuration not stated)	72.16
Cc1c(Cl)cccc1N(S(C)(=O)=O)S(C)(=O)=O	19.31
OCCOc1ccc(NCc2ccsc2)cn1	-20.84
CCN1CCN(C(=O)Nc2ccccc2)CC1	25.85
CC(C)(C)OC(=O)c1ncccc1N	63.04
CN(CC(N)=O)Cc1cc(Br)c2c(c1)OCO2	28.33
N#CCCNC(=O)CSc1ccccc1F	4.559
O=C(Nc1nnc(-c2cccs2)s1)NC1CCCNC1 (configuration not stated)	56.09
COCCCOC1CN(C(=O)c2ccc(Cl)cn2)C1	66.75
Nc1nnc(SCc2cn3ccccc3n2)s1	-2.688
COCCC(=O)NCC(C)c1ccc(F)c(F)c1 (configuration not stated)	34.16
CNc1ncccc1F	-5.014
CC(=O)Nc1nc(CCN)cs1	14.53
Cc1nc(NC(=O)CNC(=O)c2ccoc2)sc1C	-11.66
COC(=O)N1CCN(c2ncccn2)CC1	20.64
Cn1cc(CC(=O)Nc2ccc(I)cn2)cn1	54.6
O=C(Nc1ccccn1)C1Cc2ccccc2O1 (configuration not stated)	-6.401
Cc1cc(OCC(=O)NCc2ccccc2F)no1	50.7
Cc1ccc(SCC(=O)NC(N)=O)nc1	-19.7
C[C@@H](N)C(=O)N1CCC(OCCCc2ccccc2)C1 (some centres not stated)	44.18
Cc1nnc(SCC(=O)N2CC[C@](C)(O)[C@@H](O)C2)o1	-10.22
NCc1nc(-c2ccccn2)no1	7.314
Cc1ccc(NC(=O)NC2CCN(C)CC2)cc1	-18.94
Cn1ccnc1N1CCN(C(=O)C2=CCCCO2)CC1	-2.131
Cn1cc(C(=O)Nc2ccc3[nH]nnc3c2)ccc1=O	7.263
O=S(=O)(CCN1CCC(CO)CC1)c1ccc(Cl)cc1	23.61
CSCCC(=O)N(C)Cc1cccc(-n2cccn2)c1	65.14
COC(=O)Cn1cnc(N)n1	2.316
CCOC(=O)c1ccc(N2CCC(CCO)CC2)nc1	88
O=C(CCN1CCCC1CO)NCc1ccccc1Cl (configuration not stated)	80.07
CCC(c1ccc(OC)cc1)N(C)CCO (configuration not stated)	7.224
COc1cc(CCN)ccc1F	17.81
OCC1(O)CCCN(CCn2cc(Cl)cn2)CC1 (configuration not stated)	-4.728
CC(=O)N1CCc2nn(C)c(=O)n2CC1	1.178
CCCn1nnc(NCc2ccc(OC)cc2)n1	76.83
CC1C(=O)CCCN1C(=O)OC(C)(C)C (configuration not stated)	-2.404
O=C(Nc1cncc(Br)c1O)c1cncc(F)c1	-4.813
COc1ccc(CN2CCN(C)C(CCO)C2)cc1 (configuration not stated)	10.37
CC(=O)c1ccc(C(=O)NCCN2CCOCC2)s1	-4.009
COc1cccc(OC)c1OCCCN1CCNCC1	3.792
CCN(CC)CC(=O)Nc1ccc2c(c1)OCO2	17.87
C=C(C)COc1ccc(C(=O)NCC[C@@H](C)CO)cc1	65.35
COC(=O)c1cnc(CO)cn1	-10.32
CCCn1nnnc1NCc1ccc(C)s1	59.92
NC(=O)c1ccccc1NC(=O)CSc1ccccn1	53.16
CC(C(N)=O)S(=O)(=O)c1ccc2ccccc2c1 (configuration not stated)	-4.667
CCNC(=O)c1cc(N2CCCC(C)CC2)ccn1 (configuration not stated)	57.85
NCC(c1ccco1)N1CCCCC1 (configuration not stated)	6.904
COCCNC(=O)C1CCCc2ccccc21 (configuration not stated)	8.373
CN(CCCNC(=O)C1CNCCO1)c1ccccc1 (configuration not stated)	7.892
CN1CCN(CCOc2ccc(C#N)cc2)CC1	2.887
CN(Cc1cc(=O)n(C)c(=O)n1C)C1CCS(=O)(=O)C1 (configuration not stated)	-4.025
CCN1C[C@H](NC(=O)c2cnc(SC)nc2)[C@@H](OC)C1	25.78
Cc1ccc(F)cc1CNCC1(O)CCOC1 (configuration not stated)	22.3
CC(C)CN1CCC(NCCSc2nnnn2C)CC1	4.069

11 of the entries, repeated:

compound	Percent Effect
Nc1nnc(SCc2cn3ccccc3n2)s1	-2.688
N#Cc1ccc(S(=O)(=O)NCCCN)cc1C(F)(F)F	39.87
CC(=O)N1CCc2nn(C)c(=O)n2CC1	1.178
CC1C(=O)CCCN1C(=O)OC(C)(C)C (configuration not stated)	-2.404
COc1cccc(N2CCC(N)C2)c1 (configuration not stated)	66.9
O=C(Nc1nnc(-c2cccs2)s1)NC1CCCNC1 (configuration not stated)	56.09
Cc1c(Cl)cccc1N(S(C)(=O)=O)S(C)(=O)=O	19.31
CCCn1nnc(NCc2ccc(OC)cc2)n1	76.83
CN(Cc1ccc(Br)s1)CC(O)COCCO (configuration not stated)	72.16
COc1cccc(OC)c1OCCCN1CCNCC1	3.792
CCn1cc(C(=O)NC(C)c2nc(C3CC3)no2)cn1 (configuration not stated)	17.74

Measurements from “University of Dundee, Small-Polar-MMV Screening Library” (2021), ChEMBL document CHEMBL3988442.